This note sets out measurements from ChEMBL document CHEMBL4627412.

By UniProt entry, the sequences of proteins in these tests, tags left out.
UniProt Q9YQ12, entry or part of it I84V: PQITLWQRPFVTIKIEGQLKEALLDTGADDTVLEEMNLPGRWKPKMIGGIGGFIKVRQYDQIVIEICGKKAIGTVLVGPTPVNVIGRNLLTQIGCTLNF
UniProt Q9YQ12, entry or part of it A71V/I50V: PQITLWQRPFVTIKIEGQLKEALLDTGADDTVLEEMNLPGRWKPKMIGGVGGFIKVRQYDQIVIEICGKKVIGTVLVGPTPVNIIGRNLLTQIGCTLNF

Assay [1] addresses Protease (Human immunodeficiency virus 1, UniProt Q9YQ12, I84V). Description: Inhibition of HIV1 NL4-3 protease I84V mutant expressed in Escherichia coli TAP-106 cells using EDANS/DABCYL-labelled 10-amino acid containing protease cleavage site as substrate preincubated for 1 hr followed by substrate addition and measured for 60 mins by FRET assay.
The target in assay [2] is Protease (Human immunodeficiency virus 1, UniProt Q9YQ12, A71V/I50V). Description: Inhibition of HIV1 NL4-3 protease I50V/A71V mutant expressed in Escherichia coli TAP-106 cells using EDANS/DABCYL-labelled 10-amino acid containing protease cleavage site as substrate preincubated for 1 hr followed by substrate addition and measured for 60 mins by FRET assay.

As to `Cc1cccc(C)c1OCC(=O)N[C@@H](Cc1ccccc1)[C@@H](O)C[C@H](Cc1ccccc1)NC(=O)[C@H](C(C)C)N1CCCNC1=O` [LOPINAVIR], the inhibition constant (Ki) (commonly a dissociation constant, usually derived from enzyme kinetics or from competition with a known ligand) at Protease [1] came to 0.051 nM; at Protease [2], 0.061 nM.
